Experimental data: patent US20020006406A1, “METHOD FOR THE TREATMENT OF STAPHYLOCOCCAL DISEASE” (priority 1997, published 2002)

Test system: S. aureus strain AG461
Assay: Time-kill experiment, S. aureus AG461 (FIG. 1)
Type: cell-based
Settings: 0.004 and 0.032 μg/ml (1x and 8x MIC), within one hour of contact
Procedure: The bactericidal activity of lysostaphin against S. aureus was also studied by means of time-kill experiments. In one experiment of this type, S. aureus strain AG461, a methicillin-resistant clinical isolate from Genoa, Italy, was inoculated into Mueller-Hinton broth (Difco) and grown at 37° C. with gentle shaking until it reached approximately 10^8 viable cells per ml (CFU/ml), as estimated from the absorbance of the culture at 600 nm. The culture was then diluted with fresh broth to approximately 10^6 CFU/ml and 5 ml aliquots were placed in several different flasks for exposure to different concentrations of antibacterial agents. Incubation was continued, with gentle shaking, at 37° C., and samples were withdrawn at intervals for determination of viable cells. Serial 10-fold dilutions of the samples were made in sterile saline (0.9% NaCl in distilled water) and duplicate 0.1 ml aliquots of appropriate dilutions were plated on Tryptic Soy agar plates (Remel) using the agar inclusion method. (In this method, the aliquot to be plated is added to 2.5 ml of top agar, which is mixed and poured onto a plate. Top agar consisted of molten Tryptic Soy agar (Difco) diluted 2-fold with Difco Tryptic Soy broth to give a final agar concentration of 0.75%, w/v.) The plates were incubated for 24-48 hours at 36° C. and the colonies were counted manually. […]

Substance: lysostaphin: recombinant lysostaphin enzyme from fermentation of B. sphaericus; majority component lacks the two N-terminal amino acids of the published sequence
- bacteria killed: at least 99.9%
